Anti-infective test results gathered from many reports (values: NIAID ChemDB through PubChem).

All rows: tests in culture; species: Mycobacterium tuberculosis

Neighbouring rows are from separate reports. MIC bound comes from a single tested concentration. An empty or dashed field is not shown. a–b is a range or a potency band. Inhibition is in % at the dose shown (toxicity tests: loss of growth or viability).

compound | read-out | mutations | dose | read by | strain or isolate | result
N#Cc1c(-c2ccc(F)cc2)nc(NC2CCCCC2)[nH]c1=O | MIC | - | - | - | H37Ra | >50 µg/mL
NNC(=O)c1c(C2CCCCC2)nc2ccccc2c1C1CCCCC1 | MIC | - | - | BACTEC | H37Ra | >6.25 µg/mL
Nc1c(NC(=O)/C=C/c2ccccc2)cc(Cl)cc1[N+](=O)[O-] | MIC | - | - | broth dilution | H37Rv | >100 µg/mL
NNC(=O)c1ccncc1 | MIC | - | - | - | PR410 | 1.25 µg/mL
Cc1ccccc1-c1nnc(SCC(=O)c2ccccc2)o1 | inhibition | - | 6.25 µg/mL | BACTEC | H37Rv | 19%
Cc1ccc(/C=C(\C(N)=S)c2nc3ncccc3n2C)c(C)c1 | MIC | - | - | - | H37Rv | 62.5 µg/mL
O=C(N/N=C/c1ccccc1[N+](=O)[O-])c1sc2ccc(Oc3ccccc3)cc2c1Cl | inhibition | - | 6.25 µg/mL | - | H37Rv | 0%
c1ccc(CCc2nc3cc4ccccc4cc3[nH]2)cc1 | MIC | - | - | broth dilution | H37Rv | >100 µg/mL
C/C=C/C=C1\OC(C)=C(C(=O)OCC)C1=O | MIC bound | - | - | BACTEC | H37Rv | >12.5 µg/mL
CC1CCCCN1c1cncc(C(=O)NO)n1 | MIC | - | - | - | Isoniazid-resistant | 62.5 µg/mL
C/C=C/C1=CC=C/C(=C2\C(=O)CNC2=O)O1 | MIC | - | - | resazurin / visual reading | H37Rv | 6.2 µg/mL
Cc1ccc(/C=C(\C(N)=S)c2nc3ncccc3[nH]2)c(C)c1 | MIC | - | - | - | 193 | 7.8 µg/mL
CC1CN(c2cncc(C(N)=O)n2)CC(C)O1 | MIC | - | - | - | H37Rv | 250 µg/mL
O=[n+]1c2ccc(Cl)cc2n([O-])c2ccc(Cl)cc21 | MIC | - | - | - | INH-r | >12.5 µg/mL
N#Cc1cncc(-n2cncn2)n1 | MIC | - | - | - | H37Rv | 250 µg/mL
COc1cc(-c2nnc(SCC(=O)c3ccc(C)cc3)o2)cc(OC)c1OC | inhibition | - | 6.25 µg/mL | BACTEC | H37Rv | 48%
Cn1c(O)c(/C=C2/C=Nc3ccccc32)n(C)c1=N | MIC bound | - | - | BACTEC | H37Rv | >12.5 µg/mL
O=C(O)c1cn2c(n1)CN(c1cc3c(cc1F)c(=O)c(C(=O)O)c1n3CS1)CC2 | MIC | - | - | agar | H37Rv | 0.94 µM
C[n+]1cc2c(cn3c4ccccc4ccc23)c2ccccc21.[I-] | MIC | p-aminosalicylic acid-resistant | - | resazurin / visual reading | H37Rv | 1.5 µg/mL
NC(=O)c1cnccn1 | MIC | - | - | broth dilution | Isolate 192 | >400 µg/mL
O=c1cc(O)cnn1[C@@H]1O[C@H](CO)[C@@H](O)[C@H]1O | inhibition | - | 12.5 µg/mL | BACTEC | H37Rv | -2%
Cn1cccc2nc(CC(=O)NN)nc1-2 | MIC | - | - | - | 193 | 250 µg/mL
CCC[N+]1=C/c2ccccc2OC(=O)/C=C\1[O-] | MIC bound | - | - | BACTEC | H37Rv | >12.5 µg/mL
Cn1cncc1C(=O)c1nccc2c1[nH]c1ccccc12 | MIC | - | - | - | H37Rv | 14.1 µg/mL
O=C(O)c1c2n(c3cc(N4CCC(O)(c5ccc(Cl)cc5)CC4)c([N+](=O)[O-])cc3c1=O)CS2 | MIC | - | - | agar | H37Rv | 0.8 µM
CC[C@H](/C=C/C(C)[C@H]1CCC2C3CCC4CC(=O)CC[C@]4(C)C3CC[C@@]21C)C(C)C | MIC | - | - | - | H37Rv | <2 µg/mL
COc1ccc(NC(=O)c2cc(C3C4CC5CC(C4)CC3C5)c3ccccc3n2)cc1Cl | inhibition | - | 6.25 µg/mL | BACTEC | H37Ra | 35%
COc1ccc(CC(=O)N2COC(c3sc4ccc(Oc5ccccc5)cc4c3Cl)=N2)cc1 | inhibition | - | 6.25 µg/mL | - | H37Rv | 3%
O=c1[nH]c2cc(Cl)ccc2nc1/C=C(O)/C=C/c1ccccc1 | inhibition | - | 6.25 µg/mL | resazurin | H37Rv | 16%
CC1CCCCN1c1cncc(/C(N)=N/O)n1 | MIC | - | - | - | Ethionamide-resistant | 250 µg/mL
NNC(=O)Cc1cc(C2C3CC4CC(C3)CC2C4)nc2ccccc12 | MIC | - | - | BACTEC | H37Ra | >6.25 µg/mL
Nc1c(S(=O)(=O)O)cc(Nc2cccc(S(=O)(=O)/C=C/S(=O)(=O)O)c2)c2c1C(=O)c1ccccc1C2=O | inhibition | - | 12.5 µg/mL | BACTEC | H37Rv | -2%
O=C(Cc1cccc(Br)c1)N1COC(c2sc3ccc(Oc4ccccc4)cc3c2Cl)=N1 | inhibition | - | 6.25 µg/mL | - | H37Rv | 0%
Cc1ccc(-c2nc(NCCN3CCOCC3)[nH]c(=O)c2C#N)cc1 | MIC | - | - | - | H37Ra | >50 µg/mL
O=C(O)c1c2n(c3cc(N4CCN(C(c5ccccc5)c5ccc(Cl)cc5)CC4)c(F)cc3c1=O)CS2 | MIC | - | - | agar | H37Rv | 11.66 µM
CC1=CCC(=O)[C@]2(C)C(CC(=O)O)[C@]3(C)C4=C(C)[C@H](c5ccoc5)C[C@@H]4O[C@@H]3[C@H](O)[C@@H]12 | MIC | - | - | BACTEC | H37Rv | ≥12.8 µg/mL
C[n+]1cc2c(cn3c4ccccc4ccc23)c2ccccc21 | MIC | - | - | resazurin / visual reading | H37Rv | 6.2 µg/mL
O=C(O)c1c2n(c3cc(N4CCC(O)(c5ccc(Cl)cc5)CC4)c(F)cc3c1=O)CS2 | MIC | - | - | agar | H37Rv | 3.38 µM
CSc1nnc(-c2ccccc2Br)o1 | inhibition | - | 6.25 µg/mL | BACTEC | H37Rv | 47%
OCNC(=S)c1cncc(-n2ccnc2)n1 | MIC | - | - | - | Ethionamide-resistant | 500 µg/mL
NNC(=O)c1ccnc2ccccc12 | inhibition | - | 6.25 µg/mL | BACTEC | H37Ra | 0%
CN(C)C/C=C(\c1ccc(I)cc1)c1ccc(-c2ccc(Br)cc2)cc1 | MIC | - | - | - | ALI 452 | ≤4 µg/mL
O=C(N/N=C/c1ccccc1)c1sc2ccc(Oc3ccccc3)cc2c1Cl | inhibition | - | 6.25 µg/mL | - | H37Rv | 0%
COc1ccc(-c2nnc(SCC3(c4cccc(OC)c4)OCCO3)o2)cc1 | inhibition | - | 6.25 µg/mL | BACTEC | H37Rv | 0%
CCc1ccccc1NC(=O)/C(CC(=O)c1c(C)n([O-])c2ccccc2[n+]1=O)=N/NS(=O)(=O)c1ccc(C)cc1 | MIC | - | - | BACTEC | H37Rv | ≥12.5 µg/mL
CCOc1ccc(-c2nnc(SCC3(c4ccccc4)OCCO3)o2)cc1 | inhibition | - | 6.25 µg/mL | BACTEC | H37Rv | 0%
O=c1oc2c([N+](=O)[O-])cccc2cc1-c1cn2ccc(Br)cc2n1 | inhibition | - | 6.25 µg/mL | BACTEC | H37Rv | 0%
CN(C)C/C=C(/c1ccccc1)c1ccc(-c2ccc(Br)cc2)cc1 | MIC | - | - | - | ALI 544 | 20 µg/mL
Cc1c(NC(=O)CCl)c(=O)n(-c2ccccc2)n1C | inhibition | - | 12.5 µg/mL | BACTEC | H37Rv | -19%
Oc1ccccc1-c1nnc(SCC2(c3ccc(Br)cc3)OCCO2)o1 | inhibition | - | 6.25 µg/mL | BACTEC | H37Rv | 13%
CN(C)CC=C(c1ccc(Br)cc1)c1ccc(-c2ccc(Br)cc2)cc1 | MIC | - | - | - | ALI 909 | 17 µg/mL
O=C(O)c1cnc(Cl)cn1 | MIC | - | - | - | VA 205 | 256 µg/mL
Cc1ccc(/C=C(\C(N)=S)c2nc3cccnc3n2C)c(C)c1 | MIC | - | - | - | 109 | 31.2 µg/mL
O=c1oc2c(Br)cc(Br)cc2cc1-c1cn2cc(Br)ccc2n1 | inhibition | - | 6.25 µg/mL | BACTEC | H37Rv | 17%
N[C@@H](CSCSC[C@H](N)C(=O)O)C(=O)O | inhibition | - | 12.5 µg/mL | BACTEC | H37Rv | 0%
CCCCNc1nc(-c2ccc(OC)cc2)c(C#N)c(=O)[nH]1 | MIC | - | - | - | H37Ra | >50 µg/mL
COc1cc2oc3c(c(=O)c2c(O)c1/C=C/C(C)C)C(C=C(C)C)Oc1cc(O)ccc1-3 | MIC | - | - | - | ETA-R | >12.5 µg/mL
COc1ccc(-c2nc(N3CCN(C)CC3)[nH]c(=O)c2C#N)cc1 | MIC | - | - | - | H37Ra | >50 µg/mL
CN(C)c1ccc(/C=N/NC(=O)c2sc3ccc(Oc4ccccc4)cc3c2Cl)cc1 | inhibition | - | 6.25 µg/mL | - | H37Rv | 16%
COc1cc(-c2nnc(SCC(=O)c3ccc(-c4ccccc4)cc3)o2)cc(OC)c1OC | inhibition | - | 6.25 µg/mL | BACTEC | H37Rv | 37%
CCCCCCCCNc1nc(-c2ccc(OC)cc2)c(C#N)c(=O)[nH]1 | MIC | - | - | - | H37Ra | 25–50 µg/mL
CO[C@H]1/C=C/O[C@@]2(C)Oc3c(C)c(O)c4c(O)c(c5c(c4c3C2=O)NC2(CCN(CC(C)C)CC2)N=5)=NC(=O)/C(C)=C\C=C\[C@H](C)[C@H](O)[C@@H](C)[C@@H](O)[C@@H](C)[C@H](OC(C)=O)[C@@H]1C | MBC | - | - | - | 2242 (rifampicin-susceptible) | 0.125 µg/mL
COc1ccc2c(c1)C(C)(C#N)N(C)C(=O)C2=O | MIC bound | - | - | resazurin | H37Rv | >6.25 µg/mL
NNC(=O)c1cc(C2CCCC2)nc2ccccc12 | MIC | - | - | BACTEC | H37Ra | >6.25 µg/mL
Cc1cccc(C)c1NC(=S)NC=C(C(N)=O)C(N)=O | MIC bound | - | - | resazurin | H37Rv | >6.25 µg/mL
COc1ccc(C2C(Cl)C(=O)C2NC(=O)c2sc3ccc(Oc4ccccc4)cc3c2Cl)cc1OC | inhibition | - | 6.25 µg/mL | - | H37Rv | 0%
O=C(Nc1ccccc1)c1cc(C2C3CC4CC(C3)CC2C4)c2ccccc2n1 | inhibition | - | 6.25 µg/mL | BACTEC | H37Ra | 99%
COc1c(N2CCNC(C)C2)c(F)cc2c(=O)c(C(=O)O)cn(C3CC3)c12 | MIC | - | - | agar | H37Rv | 1.04 µM
COc1ccc(-c2nc(Nc3ccc(F)cc3)[nH]c(=O)c2C#N)cc1 | MIC | - | - | - | H37Ra | >50 µg/mL
O=C(Cc1cccc(Oc2ccccc2)c1)N1COC(c2sc3ccc(Oc4ccccc4)cc3c2Cl)=N1 | inhibition | - | 6.25 µg/mL | - | H37Rv | 24%
NNC(=O)c1cc2ccccc2nc1C12CC3CC(CC(C3)C1)C2 | inhibition | - | 6.25 µg/mL | BACTEC | H37Ra | 32%
CN(C)C/C=C(/c1ccc(Br)cc1)c1ccc(-c2ccc(Br)cc2)cc1 | MIC | - | - | - | ALI 452 | ≤4 µg/mL
CCOC(=O)c1[nH]c2cccc3c2c1CC(Br)C3=O | MIC bound | - | - | BACTEC | H37Rv | >12.5 µg/mL
CC[C@H](/C=C/[C@@H](C)[C@H]1CC[C@H]2[C@@H]3CC=C4C[C@@H](O)CC[C@]4(C)[C@H]3CC[C@]12C)C(C)C | MIC | - | - | - | H37Rv | 32 µg/mL
NC1(C(=O)O)Cc2ccccc2B(O)OC1=O | inhibition | - | 12.5 µg/mL | BACTEC | H37Rv | -4%
NNC(=O)c1c(C2CCCC2)nc2ccccc2c1C1CCCC1 | inhibition | - | 6.25 µg/mL | BACTEC | H37Ra | 56%
O=C(O)c1c2n(c3cc(N4CCC5(CC4)OCCO5)c([N+](=O)[O-])cc3c1=O)CS2 | MIC | - | - | agar | H37Rv | 0.09 µM
C/C(=N\NC(=O)c1cccnc1)c1cccc(/C(C)=N/NC(=O)c2cccnc2)n1 | MIC | - | - | - | KM-R | >12.5 µg/mL
CN1CCN(c2nc(-c3ccc(N(C)C)cc3)c(C#N)c(=O)[nH]2)CC1 | MIC | - | - | - | H37Ra | >50 µg/mL
O=C(O)c1c2n(c3cc(N4CCN(C(=O)C5COc6ccccc6O5)CC4)c(F)cc3c1=O)CS2 | MIC | - | - | agar | H37Rv | 6.29 µM
COc1ccc(/C=N/NC(=O)c2sc3ccc(Oc4ccccc4)cc3c2Cl)cc1OC | inhibition | - | 6.25 µg/mL | - | H37Rv | 0%
O=c1oc2c([N+](=O)[O-])cccc2cc1-c1cn2ccccc2n1 | MIC | - | - | BACTEC | H37Rv | >6.25 µg/mL
S=C(NC1CCCCC1)SSSC(=S)NC1CCCCC1 | inhibition | - | 6.25 µg/mL | resazurin | H37Rv | 10%
Nc1c(NC(=O)CCc2ccccc2)cc(Cl)cc1[N+](=O)[O-] | MIC | - | - | broth dilution | H37Rv | >100 µg/mL
CC(C)(C)OC(=O)NCCCCC(NC(=O)OCC1c2ccccc2-c2ccccc21)C(=O)N1CCCC1C(=O)NCC(N)=O | MIC bound | - | - | BACTEC | H37Rv | >12.5 µg/mL
CN(C)CC=C(c1ccccc1)c1ccc(-c2ccc(Br)cc2)cc1 | MIC | - | - | - | H37Ra | 20 µg/mL
C/C(=N\Nc1ccc2ccccc2n1)c1ccccn1 | MIC bound | - | - | BACTEC | H37Rv | >12.5 µg/mL
N#Cc1c(-c2ccc(F)cc2)nc(NCCO)[nH]c1=O | MIC | - | - | - | H37Ra | >50 µg/mL

6 of the rows above, restated:

{"compound": "COc1cc(-c2nnc(SCC(=O)c3ccc(C)cc3)o2)cc(OC)c1OC", "read-out": "inhibition", "dose": "6.25 µg/mL", "read by": "BACTEC", "strain or isolate": "H37Rv", "result": "48%"}
{"compound": "CCCCCCCCNc1nc(-c2ccc(OC)cc2)c(C#N)c(=O)[nH]1", "read-out": "MIC", "strain or isolate": "H37Ra", "result": "25–50 µg/mL"}
{"compound": "N#Cc1c(-c2ccc(F)cc2)nc(NC2CCCCC2)[nH]c1=O", "read-out": "MIC", "strain or isolate": "H37Ra", "result": ">50 µg/mL"}
{"compound": "O=C(O)c1c2n(c3cc(N4CCC5(CC4)OCCO5)c([N+](=O)[O-])cc3c1=O)CS2", "read-out": "MIC", "read by": "agar", "strain or isolate": "H37Rv", "result": "0.09 µM"}
{"compound": "COc1ccc(CC(=O)N2COC(c3sc4ccc(Oc5ccccc5)cc4c3Cl)=N2)cc1", "read-out": "inhibition", "dose": "6.25 µg/mL", "strain or isolate": "H37Rv", "result": "3%"}
{"compound": "Cc1ccc(-c2nc(NCCN3CCOCC3)[nH]c(=O)c2C#N)cc1", "read-out": "MIC", "strain or isolate": "H37Ra", "result": ">50 µg/mL"}